Pooled drug test results. Numbers come from NIAID ChemDB, via PubChem.

Shared fields: tests in culture; organism: Hepatitis B virus; endpoint: EC50

An empty or dashed field is not shown.

compound,strain or isolate,read by,value
Cc1cn([C@@H]2C[C@@](C)(CO)CO2)c(=O)[nH]c1=O,-,-,>100 µM
Nc1ccn([C@H]2CC[C@H](CO)O2)c(=S)n1,-,-,>100 µM
COc1cc(N)cc2[nH]c(CC(=O)O)cc12,-,-,0.24 µg/mL
Nc1ncnc2c1ncn2[C@@H]1O[C@H](CO)[C@](O)(C(F)(F)F)[C@H]1O,-,-,≥100 µM
O=C(NCc1cnc(C(F)(F)F)s1)c1ccc2c(c1)NC(=O)c1ccccc1S2(=O)=O,Genotype D,PCR,0.146 µM
O=c1[nH]c(=O)n([C@H]2O[C@@H](CO)[C@H](O)[C@H]2O)cc1/C=C/Br,-,-,>100 µM
COC(=O)Cc1cnc2cc(N)cc(OC)c2c1,-,-,0.32 µg/mL
O=c1ccn([C@@H]2O[C@H](CO)[C@](O)(C(F)(F)F)[C@H]2O)c(=O)[nH]1,-,-,≥100 µM
COC(=O)c1cc2c(OC)cc(C(N)=O)cc2[nH]1,-,-,0.14 µg/mL
C[C@]1(CO)CO[C@H](n2cnc3c(=O)[nH]c(F)nc32)C1,-,-,>100 µM
COc1cc(N)cc2nc(N)cc(OC)c12,-,-,0.19 µg/mL
C[C@]1(CO)CO[C@H](n2cnc3c(=O)[nH]cnc32)C1,-,-,>100 µM
COC(=O)c1cc2c(OC)cccc2[nH]1,-,-,2.13 µg/mL
C[C@]1(CO)CO[C@@H](n2ccc(N)nc2=O)C1,-,-,>100 µM
O=c1[nH]c(=O)n([C@@H]2C[C@@H](O)[C@H](CO)O2)cc1I,-,-,>100 µM

For reference, 2 entries again:

compound	strain or isolate	read by	value
COc1cc(N)cc2[nH]c(CC(=O)O)cc12	-	-	0.24 µg/mL
COC(=O)Cc1cnc2cc(N)cc(OC)c2c1	-	-	0.32 µg/mL

Lines come from different laboratories, so protocols vary. ECn: concentration that inhibits the pathogen or its effect by n%.